Compound potency records, mixed from different reports. Data source: NIAID ChemDB in PubChem.

Shared fields: tests in culture; organism: Mycobacterium tuberculosis

MIC bound: limit read from a one-dose screen.

smiles | dose | strain | mutations | read-out | method | value
O=C(Cc1nn(Cc2ccc(Br)cc2F)c(=O)c2ccccc12)N/N=C/c1ccccc1C(F)(F)F | - | Multidrug-resistant (MDR) | - | MIC | - | 0.36 µM
CO[C@H]1/C=C/O[C@@]2(C)Oc3c(C)c(O)c4c(O)c(c(/C=N/N5CCC(N(C)C)CC5)c(O)c4c3C2=O)NC(=O)/C(C)=C\C=C\[C@H](C)[C@H](O)[C@@H](C)[C@@H](O)[C@@H](C)[C@H](OC(C)=O)[C@@H]1C | - | H37Rv | - | EC50 | - | 2 µg/mL
Clc1ccc(CNc2ccccc2N2CCSCC2)cc1 | - | 103471 | - | MIC | - | >16 µg/mL
CC(=O)Nc1ccc(OCC(=O)NN2C(=O)C(C)SC2c2ccc(O)cc2)cc1 | - | H37Rv | - | EC50 | - | >12.5 µg/mL
COC(=O)C(Cc1cc(OC)c(OC)c(OC)c1)(NC(=O)c1ccccc1)P(=O)(OC)OC | - | H37Rv | - | MIC bound | BACTEC | >12.5 µg/mL
CC(=O)c1cc([N+](=O)[O-])c2nc(C3CCCC3)ccc2c1C1CCCC1 | 6.25 µg/mL | H37Rv | - | inhibition | - | 0%
O=C(c1ccncc1)N1N=C(c2ccco2)CC1(O)C(F)(F)F | - | RGH101 | - | MIC | - | 38.46 µM
CC(=O)c1cc([N+](=O)[O-])c2nc(C(C)(C)C)ccc2c1 | 6.25 µg/mL | H37Rv | - | inhibition | - | 0%
Nc1ccc(S(=O)(=O)O)c2ccc(N=Nc3ccc(N=Nc4ccc(S(=O)(=O)O)cc4)c4ccccc34)c(O)c12 | - | H37Rv | - | MIC | BACTEC | ≥128 µg/mL
NNC(=O)c1ccncc1 | - | Isolate UT2340 (katG S315T mutation) | - | MIC | - | 0.38 µg/mL
C[C@H]1[C@H](C)CC[C@]2(C(=O)O)CC[C@]3(C)C(CC[C@@H]4[C@@]5(C)C[C@H](O)CC(C)(C)[C@@H]5CC[C@]43C)[C@H]12 | - | INH-R (ATCC 35822) | - | MIC | resazurin | 25 µg/mL
NC(=O)c1cnccn1 | - | ATCC 27294 niacin-positive | - | MIC | - | 32 µg/mL
C=C[C@@]1(C)C=C2CC[C@@H]3[C@@](C)([C@H](O)CC(=O)[C@@]3(C)CC)[C@H]2C[C@H]1O | - | - | - | MIC90 | broth dilution | 12 µg/mL
CC(=O)NC[C@H]1CN(c2ccc(N3CCOCC3)c(F)c2)C(=O)O1 | - | Clinical isolate 19 RP | INH RIF EMB resistant | MIC | resazurin | 0.25 µg/mL
Cc1ccc(C2=NN(C(=O)c3ccncc3)C(O)(C(Cl)(Cl)Cl)C2)cc1 | - | H37Rv | - | MIC | - | >252 µM
N#CC(C#N)=c1c2nsnc2c(=C(C#N)C#N)c2nsnc12 | - | H37Rv | - | MIC | BACTEC | 3.13 µg/mL
C#CCCCCCCCCC/C=C1\C(=O)O[C@@H](C)[C@H]1O | - | - | - | MIC90 | broth dilution | 10.16 µg/mL
N=c1c2c(ncn1N)Oc1c(c(-c3ccccc3)nn1-c1ccccc1)C2c1ccc(Cl)cc1 | - | H37Rv | - | MIC | BACTEC | 3.13 µg/mL
CCCCOc1c(C(C)=O)cc([N+](=O)[O-])c2nccc(CC)c12 | - | H37Rv | - | MIC | - | >6.25 µg/mL
CCCCOc1ccc(NC(=S)Nc2ccc(OCCN(CC)CC)cc2)cc1 | - | BCG #256 | - | MIC | - | 31.3 µg/mL
CC(=O)c1cc([N+](=O)[O-])c2nc(C(C)C)ccc2c1C(C)C | 6.25 µg/mL | H37Rv | - | inhibition | - | 96%
O=C(Cc1nn(Cc2ccc(Br)cc2F)c(=O)c2ccccc12)N/N=C/c1ccc([N+](=O)[O-])cc1 | - | Multidrug-resistant (MDR) | - | MIC | - | <0.09 µM
O=C(Nc1cccc2c(C3CCCCC3)cc(C3CCCCC3)nc12)C(F)(F)F | - | Isoniazid-resistant | - | MIC | - | 50 µg/mL
O=C(c1ccncc1)N1N=C(c2cccs2)CC1(O)C(F)(F)F | - | H37Rv | - | MIC | - | >293 µM
CCCCCCCC(=O)C1CC(C)C(O)C(C(=O)O)C1 | - | - | - | MIC90 | broth dilution | 7.1 µg/mL
Cc1ccc(NC(=O)c2ccccc2)cc1Cl | 12.5 µg/mL | H37Rv | - | inhibition | BACTEC | 97%
CC(=O)Nc1ccc(OCC(=O)NN2C(=O)C(C)SC2c2ccco2)cc1 | 12.5 µg/mL | H37Rv | - | inhibition | - | 0%
CCCOc1c(C(C)=O)cc([N+](=O)[O-])c2nccc(CC)c12 | - | H37Rv | - | MIC | - | >6.25 µg/mL
O=C(Cc1nn(Cc2ccc(Br)cc2F)c(=O)c2ccccc12)N/N=C/c1cccc([N+](=O)[O-])c1 | - | Multidrug-resistant (MDR) | - | MIC | - | 0.37 µM
CCOc1ccc(NC(=S)Nc2ccc(OCC(C)C)cc2)cc1 | - | BCG #256 | - | MIC | - | 31.3 µg/mL
NNC(=O)c1ccncc1 | - | H37Rv | Isoniazid-resistant katG Y155 truncation | MIC | absorbance | >200 µM
O=C(Nc1cc2c(oc1=O)CCCCCC2)c1cnccn1 | - | H37Rv | - | MIC bound | BACTEC | >6.25 µg/mL
c1ccc(-c2ccc(CNc3cccc(N4CCSCC4)c3)cc2)cc1 | - | 103471 | - | MIC | - | >16 µg/mL
CCOC(=O)N1N=C(c2ccccc2)OC2(N3CCOCC3)CCC(C(C)(C)C)CC12 | 12.5 µg/mL | H37Rv | - | inhibition | BACTEC | -10%
Nc1ncnc2c1ncn2[C@@H]1O[C@H](COP(=O)(O)OC(=O)NS(=O)(=O)NC(=O)c2ccccc2O)[C@@H](O)[C@H]1O | - | - | - | MIC90 | broth dilution | 0.13 µg/mL
Clc1ccc(CNc2ccc(N3CCSCC3)cc2)cc1 | - | 103471 | - | MIC | - | >16 µg/mL
O=C1OC(c2ccccc2)=N/C1=C\c1cccnc1 | 12.5 µg/mL | H37Rv | - | inhibition | BACTEC | -12%
O=C(c1ccncc1)N1N=C(c2ccco2)CC1(O)C(Cl)(Cl)Cl | - | RGH101 | - | MIC | - | >268 µM
C/C(=N\NC(=O)Cc1nn(Cc2ccc(Br)cc2F)c(=O)c2ccccc12)c1ccc(F)cc1 | - | Multidrug-resistant (MDR) | - | MIC | - | 1.57 µM
C[C@@H]1ON2CCC[C@H]2[C@H]1C(=O)N1C2CC3CCC2(CS1(=O)=O)C3(C)C | - | H37Rv | - | MIC bound | BACTEC | >12.5 µg/mL
NNC(=O)c1ccncc1 | - | Pan-susceptible clinical isolate 14 | - | MIC | - | 0.06 µg/mL
Cn1cnc2c(NC(=O)c3ccc(C(F)(F)F)cc3)nc(Cl)cc21 | - | H37Rv | - | MIC99 | visual reading | 0.25 µM
O=c1[nH][nH]c(=O)c2c1nc(SCc1ccccc1Cl)n2Cc1ccccc1 | - | H37Rv | - | MIC bound | BACTEC | >12.5 µg/mL
CCN(CC)CCOc1ccc(NC(=S)Nc2ccc(OCC(C)C)cc2)cc1 | - | H37RV #164 | - | MIC | - | 31.3 µg/mL
COc1cc(N=Nc2cc(C)c(N=Nc3cc(S(=O)(=O)O)ccc3S(=O)(=O)O)cc2OC)c(C)cc1N=Nc1ccc(NC(=O)c2ccc(N)cc2)cc1C | 12.5 µg/mL | H37Rv | - | inhibition | BACTEC | 12%
CC(=O)Nc1ccc(OCC(=O)NN2C(=O)C(C)SC2/C=C/c2ccccc2)cc1 | 12.5 µg/mL | H37Rv | - | inhibition | - | 18%
COc1ccc(Cc2c(C)c(C#N)c3[nH]c4ccccc4n3c2=O)cc1 | - | R506 | - | MIC90 | resazurin | 0.5 µg/mL
C[C@]1(COc2ccc(N3CCC(Oc4ccc(OC(F)(F)F)cc4)CC3)cc2)Cn2cc([N+](=O)[O-])nc2O1 | - | 49 strains (SM-susceptible) | - | MIC90 | - | 0.012 µg/mL
Cc1c(Cc2ccc(F)cc2)c(=O)n2c([nH]c3ccccc32)c1C#N | - | H37Rv | - | MIC90 | resazurin | 2 µg/mL
Cn1cnc2c(NS(=O)(=O)c3ccc(Cl)cc3)nc(Cl)cc21 | - | H37Rv | - | MIC99 | visual reading | 25 µM
CO[C@H]1/C=C/O[C@@]2(C)Oc3c(C)c(O)c4c(O)c(c(/C=N/N5CCNCC5)c(O)c4c3C2=O)NC(=O)/C(C)=C\C=C\[C@H](C)[C@H](O)[C@@H](C)[C@@H](O)[C@@H](C)[C@H](OC(C)=O)[C@@H]1C | - | H37Rv | - | EC50 | - | 2 µg/mL
COc1ccc(C2SCC(=O)N2NC(=O)COc2ccc(NC(C)=O)cc2)cc1OC | - | H37Rv | - | EC50 | - | >12.5 µg/mL
CCOC(=O)C1CCCc2c1[nH]c1c(C(N)=O)cccc21 | - | - | - | EC50 | broth dilution | 3.38 µM
CC(=O)Nc1ccc(OCC(=O)N/N=C/c2ccc(Cl)cc2)cc1 | 12.5 µg/mL | H37Rv | - | inhibition | - | 29%
C/C(=N\NC(=O)Cc1nn(Cc2ccc(Br)cc2F)c(=O)c2ccccc12)c1ccc(Br)cc1 | - | Multidrug-resistant (MDR) | - | MIC | - | 2.79 µM
CC1=CC(=O)c2c(O)cccc2C1=O | - | MTCS1 | - | MIC | - | >39.06 µg/mL
C#CCNC1=C(C)C(=O)C2=C(C1=O)[C@@H](COC(N)=O)[C@@]1(OC)[C@H]3N[C@H]3CN21 | - | H37Rv | - | MIC bound | BACTEC | ≤12.5 µg/mL
CO[C@H]1/C=C/O[C@@]2(C)Oc3c(C)c(O)c4c(O)c(c(/C=N/c5nccs5)c(O)c4c3C2=O)NC(=O)/C(C)=C\C=C\[C@H](C)[C@H](O)[C@@H](C)[C@@H](O)[C@@H](C)[C@H](OC(C)=O)[C@@H]1C | - | H37Rv | - | EC50 | - | 5 µg/mL
O=[N+]([O-])c1cccc2c(C3CCCCC3)cc(C3CCCCC3)nc12 | - | Isoniazid-resistant | - | MIC | - | 6.25 µg/mL
CCCCc1ccc(N2C(=O)c3cc([N+](=O)[O-])cnc3S2(=O)=O)cc1 | 6.25 µg/mL | H37Rv | - | inhibition | resazurin | 27%
CCC(CO)NC(=O)CO | - | - | - | MIC90 | broth dilution | 29.5 µg/mL
CN1CCN(c2cccc(NCc3ccc(-c4ccccc4)cc3)c2)CC1 | - | 103471 | - | MIC | - | 8 µg/mL
C[C@H](O)CC1=C[C@H](O)[C@@H](C)OC1=O | - | - | - | MIC90 | broth dilution | 55 µg/mL
CCCCCOc1c(C(C)=O)cc(N)c2nccc(CC)c12 | - | H37Rv | - | MIC | - | 6.25 µg/mL
Cn1cnc2c(NC(=O)c3ccc(F)cc3)nc(Cl)cc21 | - | H37Rv | - | MIC99 | visual reading | 6.25 µM
COC(=O)C1=C(N)OC(C)(C)C1c1ccc(Cl)cc1 | - | H37Rv | - | MIC bound | BACTEC | >12.5 µg/mL
CO[C@H]1/C=C/O[C@@]2(C)Oc3c(C)c(O)c4c(O)c(c(C=O)c(O)c4c3C2=O)NC(=O)/C(C)=C\C=C\[C@H](C)[C@H](O)[C@@H](C)[C@@H](O)[C@@H](C)[C@H](OC(C)=O)[C@@H]1C | - | H37Rv | - | EC50 | - | 0.1 µg/mL
S=C(S)Nc1ccc(Cl)cc1 | - | H37Rv | - | MIC bound | BACTEC | ≤12.5 µg/mL
CO[C@H]1/C=C/O[C@@]2(C)Oc3c(C)c(O)c4c(O)c(c(/C=N/Nc5ccccc5)c(O)c4c3C2=O)NC(=O)/C(C)=C\C=C\[C@H](C)[C@H](O)[C@@H](C)[C@@H](O)[C@@H](C)[C@H](OC(C)=O)[C@@H]1C | - | H37Rv | - | EC50 | - | 2 µg/mL
O=C(NNCCO)C(O)C(O)C(O)C(O)CO | - | H37Rv | - | MIC bound | BACTEC | >12.5 µg/mL
CSc1ccc(Cc2c(C)c(C#N)c3[nH]c4ccccc4n3c2=O)cc1 | - | H37Rv | - | MIC90 | resazurin | 0.5 µg/mL
CC(=O)OCC1(OC(=O)CC(C)C)COC(O)C2C(C=O)=CC=C21 | - | H37Rv | - | MIC bound | BACTEC | >12.5 µg/mL
CO[C@H]1/C=C/O[C@@]2(C)Oc3c(C)c(O)c4c(O)c(c5c(c4c3C2=O)NC2(CCN(CC(C)C)CC2)N=5)=NC(=O)/C(C)=C\C=C\[C@H](C)[C@H](O)[C@@H](C)[C@@H](O)[C@@H](C)[C@H](OC(C)=O)[C@@H]1C | - | 2 isolates (HIS526TYR) | - | MIC | - | >5 µg/mL
COc1cccc2c1C(=O)c1c(O)c3c(c(O)c1C2=O)CC(O)(C(C)=O)CC3OC1CC(NCC2(O)OC(C(=O)NCCCN(C)C)C(O)C2O)C(O)C(C)O1 | - | INH-r | - | MIC | - | 12.5 µg/mL
C/C(=N\NC(=O)Cc1nn(Cc2ccc(Br)cc2F)c(=O)c2ccccc12)c1ccc(C)cc1 | - | Multidrug-resistant (MDR) | - | MIC | - | 0.79 µM
O=C(CCN1CCC23c4c5ccc(O)c4OC2C(O)C=CC3C1C5)c1ccccc1 | 12.5 µg/mL | H37Rv | - | inhibition | BACTEC | 32%
O=C(Nc1cccc2cccnc12)C(F)(F)F | 6.25 µg/mL | H37Rv | - | inhibition | - | 0%
O=C1CN(C(=O)C2CCCN2C(=O)C2CCCN2)C(=O)CN1 | - | H37Rv | - | MIC bound | resazurin | >6.25 µg/mL
Cn1cnc2c(NC(=O)c3ccccc3F)nc(Cl)cc21 | - | H37Rv | - | MIC99 | visual reading | 6.25 µM

Repeating the final 6 entries:

COc1cccc2c1C(=O)c1c(O)c3c(c(O)c1C2=O)CC(O)(C(C)=O)CC3OC1CC(NCC2(O)OC(C(=O)NCCCN(C)C)C(O)C2O)C(O)C(C)O1 ; strain: INH-r ; read-out: MIC ; value: 12.5 µg/mL
C/C(=N\NC(=O)Cc1nn(Cc2ccc(Br)cc2F)c(=O)c2ccccc12)c1ccc(C)cc1 ; strain: Multidrug-resistant (MDR) ; read-out: MIC ; value: 0.79 µM
O=C(CCN1CCC23c4c5ccc(O)c4OC2C(O)C=CC3C1C5)c1ccccc1 ; dose: 12.5 µg/mL ; strain: H37Rv ; read-out: inhibition ; method: BACTEC ; value: 32%
O=C(Nc1cccc2cccnc12)C(F)(F)F ; dose: 6.25 µg/mL ; strain: H37Rv ; read-out: inhibition ; value: 0%
O=C1CN(C(=O)C2CCCN2C(=O)C2CCCN2)C(=O)CN1 ; strain: H37Rv ; read-out: MIC bound ; method: resazurin ; value: >6.25 µg/mL
Cn1cnc2c(NC(=O)c3ccccc3F)nc(Cl)cc21 ; strain: H37Rv ; read-out: MIC99 ; method: visual reading ; value: 6.25 µM

Conditions beyond the fields shown may differ between rows. An empty or dashed field is not shown. ECn is the concentration giving n% inhibition of infection, replication or growth. A number after MIC or MFC names an inhibition level or a share of isolates. Inhibition is in % at the dose shown (toxicity tests: loss of growth or viability).